From ChEMBL document CHEMBL4495565, “Cytopathic SARS-Cov2 screening on VERO-E6 cells in a large repurposing effort” (2020)

System: SARS-CoV-2
Assay: Antiviral activity determined as inhibition of SARS-CoV-2 induced cytotoxicity of VERO-6 cells at 10 uM after 48 hours exposure to 0.01 MOI SARS CoV-2 virus by high content imaging
Conditions: Chlorocebus sabaeus, Vero C1008

## CCSC(=N)N
  inhibition: 0.22%
